Laboratory results published in the supplement of paper PMC9931576.
Human monoclonal antibodies against the spike receptor-binding domain (heavy:light variable regions). IC50 against pseudoviruses bearing the spike of naturally observed variants; lower = stronger; >10 µg/ml means not reached at the top dose. No active / inactive call. The stated detection limit is 0.0005 µg/ml; values near or below 0.001 µg/ml lie at the floor of the assay.

Columns and labels:
Test in all cases: pseudovirus neutralization IC50; higher = weaker neutralization
[1] = molecular target: SARS-CoV-2 Omicron BA.1 spike pseudovirus
Experimental: (§1)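 Single-round VSV luciferase pseudovirus mixed with antibody dilutions for 1 h and put on Huh-7 cells for about a day; IC50 from the dose curve.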

[2] = molecular target: SARS-CoV-2 Omicron BA.2 spike pseudovirus
Experimental: as §1

[3] = molecular target: SARS-CoV-2 Omicron BA.2.75 spike pseudovirus
Experimental: as §1

[4] = molecular target: SARS-CoV-2 Omicron BA.5 spike pseudovirus
Experimental: as §1

[5] = molecular target: SARS-CoV-2 Omicron BQ.1.1 spike pseudovirus
Experimental: as §1

[6] = molecular target: SARS-CoV-2 Omicron XBB spike pseudovirus
Experimental: as §1

[7] = molecular target: SARS-CoV-2 early D614G spike pseudovirus
Experimental: as §1

B1: BD56-923 (protein)
chain 1: QVHLVESGGGVVQPGRSLRLSCAASGFTFSTYGMYWVRQAPGKGLEWVALIWYDGSNTDYADSVKGRFTISRDNSKNTLYLQMNSLRAEDTAVYYCAKKGGGPYCGGDCSFSYLDYWGQGTLVTVSS
chain 2: DIQMTQSPSTLSASVGDRVTITCRASQSVSNWLAWYRQEPGKAPKLLIYEASNLETGVPSRFSGSGSGTEFTLTISSVQPDDFATYYCQQYNGFSSFGQGTKLEIK
[1]
  pseudovirus neutralization IC50: > 10 µg/mL
[2]
  pseudovirus neutralization IC50: > 10 µg/mL
[3]
  pseudovirus neutralization IC50: > 10 µg/mL
[4]
  pseudovirus neutralization IC50: > 10 µg/mL
[5]
  pseudovirus neutralization IC50: > 10 µg/mL
[6]
  pseudovirus neutralization IC50: > 10 µg/mL
[7]
  pseudovirus neutralization IC50: > 10 µg/mL

B2: BD56-924 (protein)
chain 1: EVQLVESGGGLIQPGGSLRLSCAASGFTFSSYDMHWVRQGTGQRLEWVSVIGTAGDTYYPDSVKGRFTISRENAKNSLYLQMNSLRAGDTAVYYCARGNYDSSGYFVYFDYWGQGTLVTVSS
chain 2: DIQMTQSPSSLSASVGDRVTITCRASQSISSYLNWYHQKPGKAPKLLIYAASTLQSGVPSRFSGSGSGTDFTLTISSLQPEDFATYYCQQSYIIPSYTFGQGTELEIK
[1]
  pseudovirus neutralization IC50: > 10 µg/mL
[2]
  pseudovirus neutralization IC50: > 10 µg/mL
[3]
  pseudovirus neutralization IC50: > 10 µg/mL
[4]
  pseudovirus neutralization IC50: > 10 µg/mL
[5]
  pseudovirus neutralization IC50: > 10 µg/mL
[6]
  pseudovirus neutralization IC50: > 10 µg/mL
[7]
  pseudovirus neutralization IC50: > 10 µg/mL

B3: BD56-926 (protein)
chain 1: QVQLVESGGGLVKPGGSLRLSCAASGFTFSDHYMGWVRQAPGKGLEWVSYISNSSSYTNYADSVKGRFTIFRDNAKNSLYLRMTSLRAEDTAVYYCARVHSVASYDTLTGYYRVGDAEYFQHWGQGTLVTVSS
chain 2: SYVLTQPPSVSVAPGKTARITCGGNNLGTKSVHWYHQKPGQAPVLVIYYDSNRPSGIPERFSGSKSGNTATLTISRVEAGDEADYYCQVWDSSSDHVVFGGGTKLTVL
[1]
  pseudovirus neutralization IC50: 0.496 µg/mL
[2]
  pseudovirus neutralization IC50: 0.627 µg/mL
[3]
  pseudovirus neutralization IC50: 0.298 µg/mL
[4]
  pseudovirus neutralization IC50: 0.485 µg/mL
[5]
  pseudovirus neutralization IC50: > 10 µg/mL
[6]
  pseudovirus neutralization IC50: 3.16 µg/mL
[7]
  pseudovirus neutralization IC50: 0.0141 µg/mL

B4: BD56-928 (protein)
chain 1: QLQLQESGPGLVKPSETLSLTCTVSGGSVNSGRYYWSWIRQPPGKGLEWIASIFFGGSTYYNPSLKSRVIISVDTSKNQFNLKLRSVTAADTAVYYCARGPGVLGEWGQGTLVTVSS
chain 2: DIQMTQSPSSLSASVGDRVTITCRASQGISNSLAWYQQKPGKAPKLLLYGASTLESGVPSRFSGSGSGTDFTLTISSLQPEDFATYYCQHYYSTWTFGQGTKVEIK
[1]
  pseudovirus neutralization IC50: 0.331 µg/mL
[2]
  pseudovirus neutralization IC50: 0.238 µg/mL
[3]
  pseudovirus neutralization IC50: 0.0144 µg/mL
[4]
  pseudovirus neutralization IC50: > 10 µg/mL
[5]
  pseudovirus neutralization IC50: > 10 µg/mL
[6]
  pseudovirus neutralization IC50: > 10 µg/mL
[7]
  pseudovirus neutralization IC50: 0.00279 µg/mL

B5: BD56-929 (protein)
chain 1: QVQLVESGGGVVQPGRSLRLSCAASGFTFNKYGMHWVRQAPGKGLEWVAIILYDGSNKYYADSVKGRFTISRDNSKNTLYLQMNSLRAEDTAVYYCAKNGQGYGSTWYYFDYWGQGTLVTVSS
chain 2: DIQMTQSPSSLSASVGDRVTITCQASQDISNYLNWYQQKPGKPPKLLIYDASDLETGVPSRFSGSGSGTDFTFTINSLQPEDIATYYCQQYDNFPPTFGQGTKLEIK
[1]
  pseudovirus neutralization IC50: > 10 µg/mL
[2]
  pseudovirus neutralization IC50: > 10 µg/mL
[3]
  pseudovirus neutralization IC50: > 10 µg/mL
[4]
  pseudovirus neutralization IC50: > 10 µg/mL
[5]
  pseudovirus neutralization IC50: > 10 µg/mL
[6]
  pseudovirus neutralization IC50: > 10 µg/mL
[7]
  pseudovirus neutralization IC50: 9.19 µg/mL

B6: BD56-933 (protein)
chain 1: QVQLVESGGGVVQPGRSLRLSCAASGFTFRRYGMHWVRQAPGKGLIWVAVISYDGDKKYYADSVKGRFTISRDNSKNTLYLQMDSLRAEDTAVYYCAKVLGEYCSAGTCYGDYFDYWGQGTLVTVSS
chain 2: DIQMTQSPSSLSASIGDRVTITCRASQGISNSLAWYQRKPGKAPKLLLYDASRLESGVPSRFSGSGSGTDYTLTISSLQPEDFATYYCQQYYSTPPWTFGQGTKVEIK
[1]
  pseudovirus neutralization IC50: > 10 µg/mL
[2]
  pseudovirus neutralization IC50: > 10 µg/mL
[3]
  pseudovirus neutralization IC50: > 10 µg/mL
[4]
  pseudovirus neutralization IC50: > 10 µg/mL
[5]
  pseudovirus neutralization IC50: > 10 µg/mL
[6]
  pseudovirus neutralization IC50: > 10 µg/mL
[7]
  pseudovirus neutralization IC50: > 10 µg/mL

B7: BD56-934 (protein)
chain 1: QVQLVQSGAEVKKPGSSVKVSCKASGGTFSSDALRWVRQAPGQGLEWMGGIIPIFGTTSYAQKFQGRVTFTADESTSTAYMELSSLTSEDTAVYYCAKDSRTSPLYGMDVWGQGTTVTVSS
chain 2: DIQMTQSPSSLSASVGDRVTITCRASQTISRYLNWYQQVSGKAPKLLIYAASSLQSGVSSRFSGSGSGTDFTLTISSLQPEDFATYYCQQSYSTPLTFGGGTKVEIK
[1]
  pseudovirus neutralization IC50: 0.287 µg/mL
[2]
  pseudovirus neutralization IC50: 0.198 µg/mL
[3]
  pseudovirus neutralization IC50: 0.173 µg/mL
[4]
  pseudovirus neutralization IC50: > 10 µg/mL
[5]
  pseudovirus neutralization IC50: > 10 µg/mL
[6]
  pseudovirus neutralization IC50: 1.34 µg/mL
[7]
  pseudovirus neutralization IC50: 0.689 µg/mL

B8: BD56-935 (protein)
chain 1: QVQLQESGPGLVKPSGTLSLTCAVSGGSISGPHWWSWVRQSPGKGLEWLGEIFHTGSTNYNPSLKSRVTISVDKSKNQFSLKLSSVTAADTAVYYCARSTGFLDYWGQGTLVIVSS
chain 2: DIQMTQSPSSLSASVGDRVSITCRASQGISNSLAWYQQKPGKAPKVLLYEASTLESGVPSRFSGSGSGTDFTLTISSLQPEDFATYYCQQYYSIRTFGQGTKVETK
[1]
  pseudovirus neutralization IC50: 0.0428 µg/mL
[2]
  pseudovirus neutralization IC50: 0.0461 µg/mL
[3]
  pseudovirus neutralization IC50: 0.0386 µg/mL
[4]
  pseudovirus neutralization IC50: 4.56 µg/mL
[5]
  pseudovirus neutralization IC50: 4.17 µg/mL
[6]
  pseudovirus neutralization IC50: 3.8 µg/mL
[7]
  pseudovirus neutralization IC50: 0.00212 µg/mL

B9: BD56-939 (protein)
chain 1: QVQLVQSGAEVKKPGASVKVSCKAPIDTFTTYYLHWVRQAPGQGLEWMGIMNPDGGSTSYAKKFQHRVTMTRDTSSSTVYLELRSLRSDDTGVYYCARGGLVPDATEPFDSWGQGTLVTVSS
chain 2: DIQMTQSPSTLSASVGDRVTITCRASQSVSNWLAWYQQKPGKAPKLLIYKASILETGVPSRFSGSGSGTQFSLTISSLQPDDFATYYCQQYNRYLYTFGQGTKLEIK
[1]
  pseudovirus neutralization IC50: > 10 µg/mL
[2]
  pseudovirus neutralization IC50: > 10 µg/mL
[3]
  pseudovirus neutralization IC50: > 10 µg/mL
[4]
  pseudovirus neutralization IC50: > 10 µg/mL
[5]
  pseudovirus neutralization IC50: > 10 µg/mL
[6]
  pseudovirus neutralization IC50: > 10 µg/mL
[7]
  pseudovirus neutralization IC50: > 10 µg/mL

B10: BD56-940 (protein)
chain 1: QVQLVQSGAEVRKPGASVKVSCKASGYRFSSYGITWVRQAPGQGLQWVGWISAYNGDADYAQKVQGRVTMTTDTSTSTAYMELRSLRSDDTAVYYCARDTGSSGYYHGMDVWGQGTTVTVSS
chain 2: EIVLTQSPDTLSLSPGERATLSCRASQSVSSYLAWYQQKPGQAPRLLIYDASNRATGTPARFSGSGSGTDFTLTISNLEPEDFAVYYCQQRINWPPETFGQGTTVEIK
[1]
  pseudovirus neutralization IC50: 0.569 µg/mL
[2]
  pseudovirus neutralization IC50: 0.327 µg/mL
[3]
  pseudovirus neutralization IC50: 1.63 µg/mL
[4]
  pseudovirus neutralization IC50: > 10 µg/mL
[5]
  pseudovirus neutralization IC50: > 10 µg/mL
[6]
  pseudovirus neutralization IC50: 2.79 µg/mL
[7]
  pseudovirus neutralization IC50: 0.81 µg/mL

B11: BD56-942 (protein)
chain 1: EVQLVESGGGLVKPGGSLRLSCAASGFTFGSYSMNWVRQAPGKGLEWVSFISSSGTYIKYTDSLKGRVTISRDNAKNSLNLQMNSLRVEDTAVYFCARVTWGCDSTGCHNYYAMDVWGQGTTVTVSS
chain 2: QSALTQPRSVSGSPGQSVTISCTGTSSDVGSYNYISWYQHHPGKAPKLMIYDVNKRPSGVPDRFSGSKSGNTASLTNSGLQAEDEADYYCCSYAGNYTFVFGTGTTVTVL
[1]
  pseudovirus neutralization IC50: 0.0594 µg/mL
[2]
  pseudovirus neutralization IC50: 0.0262 µg/mL
[3]
  pseudovirus neutralization IC50: 0.0394 µg/mL
[4]
  pseudovirus neutralization IC50: 0.036 µg/mL
[5]
  pseudovirus neutralization IC50: 1.12 µg/mL
[6]
  pseudovirus neutralization IC50: 1.66 µg/mL
[7]
  pseudovirus neutralization IC50: 0.0355 µg/mL

B12: BD56-945 (protein)
chain 1: QLQLQESGPGLVKPSETLSLTCTVSGGSISSSNYYWGWIRQPPGKGLEWIGSIFYTGITYYNPSLKSRVTISVDTSKNQFSLKLSSVPAADTAVYYCARHYRHIAAADYWGQGTLVTVSS
chain 2: QSALTQPASVSGSPGQSITISCTGTSSDVGSYNLVSWYQQHPGRAPKLMIYEVSERPSGVSDRFSGSKSGNTASLSISGLQAEDEADYYCCSYVGTSTFYVFGTGTKVTVV
[1]
  pseudovirus neutralization IC50: > 10 µg/mL
[2]
  pseudovirus neutralization IC50: > 10 µg/mL
[3]
  pseudovirus neutralization IC50: > 10 µg/mL
[4]
  pseudovirus neutralization IC50: > 10 µg/mL
[5]
  pseudovirus neutralization IC50: > 10 µg/mL
[6]
  pseudovirus neutralization IC50: > 10 µg/mL
[7]
  pseudovirus neutralization IC50: > 10 µg/mL
